Test results published in paper PMC6268315, “Investigating the Spectrum of Biological Activity of Substituted Quinoline-2-Carboxamides and Their Isosteres ^†” (Molecules, 2012).

Tested on: human monocytic leukemia THP-1 cells
Conditions: LD50 THP-1 / IC90 marked by * in Table 3

| Compound | SI [LD50/IC90] |
| --- | --- |
| O=C(c1ccc2ccccc2n1)N1CCCC1 [Compound 3, 2-(Pyrrolidin-1-ylcarbonyl)quinoline] | >0.90 |
| O=C(NCCc1ccccc1)c1ccc2ccccc2n1 [Compound 11, N-(2-Phenylethyl)quinoline-2-carboxamide] | >0.92 |
| O=C(c1ccc2ccccc2c1)N1CCCC1 [Compound 22, 1-(2-Naphthoyl)pyrrolidine] | >0.90 |
| O=C(NC1CCCCCC1)c1ccc2ccccc2n1 [Compound 7, N-Cycloheptylquinoline-2-carboxamide] | 0.56 |
